A mixed list of measured activities; the numbers were collected in NIAID ChemDB.

Common to all: tests in culture; species: Hepatitis C virus; method: replicon; read-out: EC50

Conditions beyond the fields shown may differ between rows. a–b is a range or a potency band. An empty or dashed field is not shown. ECn is the concentration giving n% inhibition of infection, replication or growth.

smiles | setting | strain | cell line | value
C[C@@H](c1ccccc1)n1cc(-c2noc(C(C)(C)c3ccccc3)n2)c(=O)c2cc(F)c(N3CCOCC3)cc21 | - | 1b | - | >10 µM
Cc1cnccc1C(=O)Nc1ccc(-c2cc(N(C(=O)C3CCC(C)CC3)C(C)C)c(C(=O)O)s2)cc1 | - | 1a | - | >0.5 µM
CN1CCN(c2cc3c(cc2F)c(=O)c(-c2noc(C(CCC(N)=O)c4ccccc4)n2)cn3Cc2ccc(Cl)cc2)CC1 | - | 1b | - | >10 µM
C=CC1C[C@@]1(NC(=O)[C@@H]1C[C@@H](Oc2cc(-c3ccccc3)nc3cc(OC)ccc23)CN1C(=O)[C@@H](NC(=O)Oc1ccc(C(F)(F)F)cc1)C(C)(C)C)C(=O)NS(=O)(=O)C1(Cc2ccccc2)CC1 | - | 1b | Huh7 | 0.5–5 µM
Nc1ncnc2c1c(-c1ccoc1)cn2[C@@H]1O[C@H](CO)[C@@H](O)[C@H]1F | - | 1b | HCV replicon | 5.75 µM
O=C(O)c1ccc2c(c1)c(=O)c(-c1noc(Cc3ccccc3)n1)cn2Cc1ccc(C(F)(F)F)cc1F | - | 1b | - | <2 µM
CCC[C@H](NC(=O)[C@@H]1[C@H]2CCC[C@H]2CN1C(=O)[C@@H](NC(=O)[C@@H](NC(=O)c1cnccn1)C1CCCCC1)C(C)(C)C)C(=O)C(=O)NC1CC1 | - | - | Huh7 | 0.33 µM
CC1CCC(C(=O)N(c2cc(-c3ccc(NC(=O)c4ccco4)cc3)sc2C(=O)O)C(C)C)CC1 | - | 1b | - | <0.5 µM
COc1ccc(NC(=O)C2CC2)cc1-c1ccc(C(=O)Nc2ccc(CN3CCS(=O)(=O)CC3)cc2)cc1 | - | 1b | - | 0.7 µM
O=C(Nc1ccc(-c2cc(N(CC3CC3)C(=O)C3CCC(C(F)(F)F)CC3)c(C(=O)O)s2)cc1)c1cscn1 | - | 1a | - | <0.5 µM
CCOc1nc(N)nc2c1ncn2[C@@H]1O[C@@H]2COP(=O)(OC(C)C)O[C@H]2[C@@]1(C)F | 85 d | 2a | - | 1.94 µM
CC1CCC(C(=O)N(c2cc(-c3ccc(NC(=O)c4cccc(F)c4)cc3)sc2C(=O)O)C(C)C)CC1 | - | 1b | - | <0.5 µM
CN1CCN(c2cc3c(cc2F)c(=O)c(-c2noc(CC(C)(C)C)n2)cn3Cc2ccc(Cl)cc2)CC1 | - | 1b | - | >10 µM
O=C(O)c1ccc2nc(-c3ccc(Br)cc3)c(-c3ccc(Br)cc3)nc2c1 | - | - | Huh7 | 10–50 µM
O=c1c(-c2noc(Cc3ccccc3)n2)cn(Cc2ccc(C(F)(F)F)cc2)c2cc(N3CCCNCC3)c(F)cc12 | - | 1b | - | <2 µM
CC1CCC(C(=O)N(CC2CC2)c2cc(-c3ccc(NC(=O)c4ccn[nH]4)cc3)sc2C(=O)O)CC1 | - | 1b | - | <0.5 µM
O=C(Nc1ccc(CN2CCS(=O)(=O)CC2)cc1)c1ccc(-c2cc(NC(=O)C3CC3)ccc2OC(F)(F)F)cc1 | - | 1b | - | 0.062 µM
O=C(N[C@@H](Cc1c[nH]c2ccc(O)cc12)C(=O)O)c1ccc2nc(-c3ccc(F)cc3)c(-c3ccc(F)cc3)nc2c1 | - | - | Huh7 | 10–50 µM
NS(=O)(=O)c1ccc(CNc2nc(NCC(F)(F)F)c3nc(-c4ccc(C(=O)NC5CC5)cc4)cnc3n2)cc1 | - | HCV replicon | Huh7 | 0.3–1 µM
CNC(=O)c1c(-c2ccccc2)oc2ccc(OC(C)C)cc12 | - | - | Huh7 | <30 µM
Cc1cc(C(=O)Nc2ccc(-c3cc(N(CC4CC4)C(=O)C4CCC(C)CC4)c(C(=O)O)s3)cc2)nn1C | - | 1a | - | <0.5 µM
CC(Nc1nc(NCC(F)(F)F)c2nc(-c3ccc(F)cc3)cnc2n1)c1ccc(S(N)(=O)=O)cc1 | - | HCV replicon | Huh7 | <0.3 µM
COC(=O)[C@H](Cc1c[nH]c2ccccc12)NC(=O)c1ccc2nc(-c3ccc(F)cc3)c(-c3ccc(F)cc3)nc2c1 | - | - | Huh7 | 10–50 µM
C=C[C@@H]1C[C@]1(NC(=O)[C@@H]1C[C@@H](Oc2cc(-c3ccccc3)nc3cc(OC)ccc23)CN1C(=O)[C@@H](NC(=O)OC(C)(C)C)C1CCCC1)C(=O)NS(=O)(=O)C1CC1 | - | 1b | Huh7 | <0.05 µM
CNC(=O)c1c(-c2ccc(F)cc2)oc2cc(NCCN3CCOCC3)c(OC(C)C)cc12 | - | - | Huh7 | <30 µM
CN1CCN(c2cc3c(cc2F)c(=O)c(-c2noc(Cc4ccccc4)n2)cn3Cc2ccccc2F)CC1 | - | 1b | - | <10 µM
COc1ccc(-c2cnc3nc(N)nc(N4CCN(C(=O)Nc5ccc(C#N)cc5)CC4)c3n2)cc1OC | - | HCV replicon | Huh7 | <0.3 µM
Nc1ncnc2c1c(-c1ccsc1)cn2[C@H]1O[C@H](CO)[C@@H](O)C1(F)F | - | 2a | HCV replicon | 8.52 µM
OC[C@@H]1C[C@@H](O)[C@H](n2cnc3c(Cc4ccccc4)ncnc32)O1 | - | - | - | >10 µM
C=CC1CC1(NC(=O)OC(C)(C)C)C(=O)N1C[C@H](Oc2cc(-c3ccccc3)nc3cc(OC)ccc23)C[C@H]1C(=O)N[C@]1(C(=O)NS(=O)(=O)C2CC2)C[C@H]1C=C | - | 1b | Huh7 | <0.5 µM
C=C[C@@H]1CC1(NC(=O)[C@@H]1C[C@@H](Oc2ccnc3cc(OC)ccc23)CN1C(=O)[C@@H](NC(=O)[C@@H](NC(C)=O)C1CCCCC1)C(C)C)C(=O)O | - | - | Huh7 | >5 µM
CNC(=O)c1c(-c2ccc(F)cc2)oc2cc(N(CS(C)(=O)=O)OC)c(OCc3ccc(C#N)cc3)cc12 | - | - | Huh7 | <1 µM
Cc1ccc(NC(=O)C2CC2)cc1-c1ccc(C(=O)Nc2ccc(CN3CCS(=O)(=O)CC3)cc2)cc1 | - | 1b | - | 0.17 µM
OCc1ncnc2c1ncn2[C@@H]1O[C@H](CO)C[C@H]1O | - | - | - | >10 µM
C=C[C@@H]1C[C@]1(NC(=O)[C@@H]1C[C@@H](Oc2cc(-c3ccccc3)nc3cc(OC)ccc23)CN1C(=O)[C@@H](NC(=O)CCl)C(C)(C)C)C(=O)NS(=O)(=O)C1CC1 | - | 1b | Huh7 | <0.05 µM
O=c1c(-c2noc(Cc3ccccc3)n2)cn(Cc2ccc(Cl)cc2)c2ccc(O)cc12 | - | 1b | - | <10 µM
CNC(=O)c1c(-c2ccc(F)cc2)oc2cc(C3CCOC3)c(OC)cc12 | - | - | Huh7 | <1 µM
CC[C@@H]1C[C@]1(NC(=O)C1CC(Oc2cc(-c3csc(NC(C)C)n3)nc3c(Cl)c(OCCN4CCOCC4(C)C)ccc23)CN1C(=O)[C@@H](NC(=O)C1C[C@@H]2C[C@@H]2C1)C(C)(C)C)C(=O)O | - | 1b | Huh-luc | 0.0032 µM
COc1ccc(-c2cnc3nc(N)nc(N4CCN(Cc5cccc(C)c5)CC4)c3n2)cc1OC | - | HCV replicon | Huh7 | <0.3 µM
Nc1ncnc2c1c(-c1ccccc1)cn2[C@@H]1O[C@H](CO)[C@@H](O)[C@H]1F | - | 1a | HCV replicon | 33.13 µM
COc1cc2c(=O)c(-c3nc(Cc4ccccc4)no3)cn(CC3CCCCC3)c2cc1OC | - | 1b | - | >10 µM
CC[C@@H](C)Nc1nc(N)nc2ncc(-c3ccc(OC)c(OC)c3)nc12 | - | HCV replicon | Huh7 | 0.3–1 µM
CC[C@@H]1C[C@]1(NC(=O)C1CC(Oc2cc(-c3csc(NC(C)C)n3)nc3c(Cl)c(OCCN4CC[C@@H](OC)C4)ccc23)CN1C(=O)[C@@H](NC(=O)C1C[C@@H]2C[C@@H]2C1)C(C)(C)C)C(=O)O | - | 1b | Huh-luc | 0.0038 µM
C=C[C@H]1C[C@@]1(NC(=O)[C@@H]1C[C@@H](Oc2cc(-c3ccccc3)nc3cc(OC)ccc23)CN1C(=O)[C@@H](NC(=O)OC(C)(C)C)C(C)(C)C)C(=O)NS(=O)(=O)C1(Cc2ccc(OC)cc2)CC1 | - | 1b | Huh7 | 0.05–0.5 µM
C=C[C@@H]1C[C@]1(NC(=O)[C@@H]1C[C@@H](Oc2cc(-c3ccccc3)nc3cc(OC)ccc23)CN1C(=O)[C@@H](NC(=O)OCc1ccccc1)C(C)(C)C)C(=O)NS(=O)(=O)C1CC1 | - | 1b | Huh7 | <0.05 µM
CNC(=O)c1c(-c2ccc(F)cc2)oc2cc(N3CCOCC3)c(OCc3ccc(C#N)cc3)cc12 | - | - | Huh7 | <10 µM
Cc1ccc(-c2nc3cc(C(=O)O)ccc3nc2-c2ccc(Cl)cc2)cc1 | - | - | Huh7 | 10–50 µM
C=C[C@H]1C[C@@]1(NC(=O)[C@@H]1C[C@@H](Oc2cc(-c3ccccc3)nc3cc(OC)ccc23)CN1C(=O)[C@@H](NC(=O)OCC1CC1)C(C)(C)C)C(=O)NS(=O)(=O)C1(Cc2ccccc2)CC1 | - | 1b | Huh7 | 0.05–0.5 µM
CNC(=O)c1c(-c2ccc(F)cc2)oc2cc(N(C)S(C)(=O)=O)c(OCc3cc(OC)cc(OC)c3)cc12 | - | - | Huh7 | <1 µM
O=C(Nc1ccc(CN2CCS(=O)(=O)CC2)cc1)c1ccc(-c2cc(NC(=O)C3CC3)ccc2Cl)cc1 | - | 1b | - | 0.18 µM
C=C[C@H]1CC1(NC(=O)[C@@H]1C[C@@H](Oc2cc(-c3ccccc3)nc3cc(OC)ccc23)CN1C(=O)[C@@H](NC(=O)OC(C)(C)C)C(C)C)C(=O)O | - | 1b | Huh7 | <0.05 µM
CC1CCC(C(=O)N(CC2CC2)c2cc(-c3ccc(NC(=O)c4cccnn4)cc3)sc2C(=O)O)CC1 | - | 1a | - | <0.5 µM
COc1ccc2c(O[C@@H]3C[C@@H](C(=O)NC4(C(=O)NS(=O)(=O)C5CC5)CC4)N(C(=O)[C@@H](NC(=O)OC(C)(C)C)C(C)C)C3)cc(-c3ccccc3)nc2c1 | - | 1b | Huh7 | <5 µM
Nc1ncnc2c1c(-c1cc3ccccc3o1)cn2[C@@H]1O[C@H](CO)[C@@H](O)C1(F)F | - | 2a | HCV replicon | 1.62 µM
CC1CCC(C(=O)N(c2cc(-c3ccc(NC(=O)c4cscn4)c(Cl)c3)sc2C(=O)O)C(C)C)CC1 | - | 1a | - | <0.5 µM
C=C[C@@H]1C[C@]1(NC(=O)[C@@H]1C[C@@H](Oc2cc(-c3ccccc3)nc3cc(OC)ccc23)CN1C(=O)[C@@H](NC(=O)OC(C)(C)C)C(C)(C)C)C(=O)NS(=O)(=O)c1cccc(C)c1 | - | 1b | Huh7 | <0.5 µM
COc1ccc2c(O[C@@H]3C[C@H]4C(=O)N[C@]5(C(=O)O)C[C@H]5/C=C\CCCCC[C@H](NC(=O)OC5CCCC5)C(=O)N4C3)cc(-c3csc(NC(C)C)n3)nc2c1 | - | genotype 1b | Huh7 | 0.003 µM
CCc1ncnc2c1ncn2[C@@H]1O[C@H](CO)C[C@H]1O | - | - | - | >10 µM
C=C[C@H]1C[C@@]1(NC(=O)[C@@H]1C[C@@H](Oc2ccnc3cc(Cl)ccc23)CN1C(=O)[C@@H](NC(=O)OC1CCCC1)C(C)(C)C)C(=O)NS(=O)(=O)C1(CC#CCC)CC1 | - | 1b | Huh7 | <0.05 µM
Nc1ncnc2c1c(-c1ccsc1)cn2[C@@H]1O[C@H](CO)[C@@H](O)[C@H]1F | - | 1a | HCV replicon | 6.52 µM
COc1ccc(-c2cnc3nc(N)nc(N4CCN(Cc5ccncc5)CC4)c3n2)cc1OC | - | HCV replicon | Huh7 | 0.3–1 µM
Nc1ncnc2c1c(I)cn2[C@H]1O[C@H](CO)[C@@H](O)C1(F)F | - | 1a | HCV replicon | 2.48 µM
COc1ccc2c(O[C@@H]3C[C@@H](C(=O)NC4(C(=O)O)CC4)N(C(=O)[C@@H](NC(=O)[C@@H](NC(C)=O)C4CCCCC4)C(C)C)C3)ccnc2c1 | - | - | Huh7 | >20 µM
Nc1ncnc2c1c(-c1cccs1)cn2[C@@H]1O[C@H](CO)[C@@H](O)[C@H]1F | - | 1a | HCV replicon | 2 µM
COc1ccc(-c2cnc3nc(N)nc(N4CCN(C(=O)Nc5ccc(F)cc5)CC4)c3n2)cc1OC | - | HCV replicon | Huh7 | <0.3 µM
CCCOc1ccc2oc(-c3ccccc3)c(C(=O)NC)c2c1 | - | - | Huh7 | <30 µM
C#Cc1cn([C@@H]2O[C@H](CO)[C@@H](O)[C@H]2F)c2ncnc(N)c12 | - | 1b | HCV replicon | 0.47 µM

The first 7 rows once more:

smiles | setting | strain | cell line | value
C[C@@H](c1ccccc1)n1cc(-c2noc(C(C)(C)c3ccccc3)n2)c(=O)c2cc(F)c(N3CCOCC3)cc21 | - | 1b | - | >10 µM
Cc1cnccc1C(=O)Nc1ccc(-c2cc(N(C(=O)C3CCC(C)CC3)C(C)C)c(C(=O)O)s2)cc1 | - | 1a | - | >0.5 µM
CN1CCN(c2cc3c(cc2F)c(=O)c(-c2noc(C(CCC(N)=O)c4ccccc4)n2)cn3Cc2ccc(Cl)cc2)CC1 | - | 1b | - | >10 µM
C=CC1C[C@@]1(NC(=O)[C@@H]1C[C@@H](Oc2cc(-c3ccccc3)nc3cc(OC)ccc23)CN1C(=O)[C@@H](NC(=O)Oc1ccc(C(F)(F)F)cc1)C(C)(C)C)C(=O)NS(=O)(=O)C1(Cc2ccccc2)CC1 | - | 1b | Huh7 | 0.5–5 µM
Nc1ncnc2c1c(-c1ccoc1)cn2[C@@H]1O[C@H](CO)[C@@H](O)[C@H]1F | - | 1b | HCV replicon | 5.75 µM
O=C(O)c1ccc2c(c1)c(=O)c(-c1noc(Cc3ccccc3)n1)cn2Cc1ccc(C(F)(F)F)cc1F | - | 1b | - | <2 µM
CCC[C@H](NC(=O)[C@@H]1[C@H]2CCC[C@H]2CN1C(=O)[C@@H](NC(=O)[C@@H](NC(=O)c1cnccn1)C1CCCCC1)C(C)(C)C)C(=O)C(=O)NC1CC1 | - | - | Huh7 | 0.33 µM